The values below come from PubChem BioAssay AID449728 (The Scripps Research Institute Molecular Screening Center, 2010).

This is a selection; strong and weak results do not stand in their true shares. Calls of active or inactive are those of the source.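 How the source made its calls: active means inhibition above the campaign's mean inhibition across all tested compounds plus 3 SD (cut at about 9.9% in these data); inactive means the rest.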

The experiment in a line: bacterial viability reduction in E. coli – absorbance, OD600, counter-screen for AddAB inhibitor project, primary screen (AID 449728).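 Further: uninfected addAB+ strain grown without phage in ampicillin broth; 0% = DMSO wells and 100% = ciprofloxacin 0.95 µg/ml wells.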 As to conditions: E. coli V3065 growth, 18 h, at 11.9 µM, active compounds read high.
On to `COc1ccc(N/C(=N/P(=O)(N2CCOCC2)N2CCOCC2)N2CCOCC2)cc1`, for which the inhibition is inactive: 1.34%.

Take `COc1cc(I)ccc1[As](=O)(O)O`: the inhibition was inactive: -1.97%.

With `COc1ccc2nc(NP(=O)(c3ccccc3)c3ccccc3)sc2c1`, the inhibition was inactive: -2.39%.

In the case of `Cc1c2c(nc3ccccc13)SC(C(Cl)Cl)C2` (configuration not stated), the inhibition was inactive: -0.95%.

With `Cc1cc(=O)[nH]c(N[N+](=O)[O-])n1`, the inhibition was inactive: 0.95%.

On to `O=C(OC1CN2CCC1CC2)C12CC3CC(CC(C3)C1)C2` (configuration not stated), for which the inhibition is inactive: 0.27%.

In the case of `O=[N+]([O-])c1cc([N+](=O)[O-])c(-c2ccn[nH]2)s1`, the inhibition was active: 25.8%.

In the case of `CC(C)NC(=O)NP(=O)(Oc1ccccc1)Oc1ccccc1`, the inhibition is inactive: -0.27%.

Regarding `CCN(CC)C(=S)SC(NC=O)C(Cl)(Cl)Cl` (configuration not stated), the inhibition is inactive: 1.1%.

On to `ClCCSc1nnc(-c2cccnc2)o1`, for which the inhibition is inactive: 0.63%.

As for `CC(C)c1ccc(OP(=O)(Nc2ccccn2)Oc2ccccc2F)cc1` (configuration not stated), the inhibition was inactive: 2.04%.

Turning to `Cc1ccc(OP(=O)(Nc2ccc([N+](=O)[O-])cn2)Oc2ccc(C)cc2)cc1`, the inhibition was inactive: 0%.

For `Cc1ccc2nc3c(c(C)c2c1)CC(C(Cl)Cl)S3` (configuration not stated), the inhibition is inactive: 0.09%.

Regarding `COc1cc(C(=O)NCC2(N3CCOCC3)CCCCC2)ccc1OCC(C)C`, the inhibition is inactive: -1.59%.

Take `C[As](=O)(O)c1cccc(C(=O)O)c1`: the inhibition is inactive: -0.63%.

For `O=[As](O)(c1ccc(O)cc1)c1ccccc1O`, the inhibition was inactive: -1.8%.

Regarding `Cc1cc(SC(NC=O)C(Cl)(Cl)Cl)ncn1` (configuration not stated), the inhibition was inactive: -0.77%.

As for `O=P(Nc1ccccn1)(c1cccc2ccccc12)c1cccc2ccccc12`, the inhibition is inactive: -0.09%.

For the molecule `CCOC(=O)Nc1cccc([As](=O)(O)O)c1`, the inhibition is inactive: 2.57%.

`Cc1cc(SC(NC(=O)c2ccccc2)C(Cl)(Cl)Cl)nc(C(C)C)n1` (configuration not stated): the inhibition is inactive: -1.72%.

Regarding `CCOC(=O)Nc1ccc([As](=O)(O)O)c(O)c1`, the inhibition is inactive: 2.49%.

As to `CCC(C)N(CC(C)C)C(=S)SC(NC(C)=O)C(Cl)(Cl)Cl` (configuration not stated), the inhibition was active: 13.5%.

Regarding `O=C(OC1CN2CCC1CC2)c1cccc([N+](=O)[O-])c1` (configuration not stated), the inhibition was inactive: 1%.

For the molecule `CCOC(=O)c1ccc(NC(=O)C(C)(CCl)SC)cc1` (configuration not stated), the inhibition was inactive: -1.37%.

Turning to `O=C(Nc1ccncc1[N+](=O)[O-])c1ccc([N+](=O)[O-])cc1[N+](=O)[O-]`, the inhibition is inactive: -1.36%.

As for `O=C(COc1ccccc1)OC1CN2CCC1CC2` (configuration not stated), the inhibition was inactive: 3.64%.

For the molecule `COP1(=S)c2c(C)nn(CCC#N)c2N=C(c2ccc(F)cc2)N1C` (configuration not stated), the inhibition is inactive: -0.74%.

In the case of `CN(C(=O)Cc1ccc(Cl)c(Cl)c1)[C@@H]1CCCC[C@H]1N1CCCC1`, the inhibition was inactive: 0.17%.

Regarding `CC(C)/C=N\N=C(\N)N[N+](=O)[O-]`, the inhibition was inactive: -5.45%.

With `CC1(CBr)Cn2c(nc3ccccc3c2=O)S1` (configuration not stated), the inhibition is inactive: -1.1%.

Turning to `O=[As](O)(c1ccccc1Br)c1ccccc1Br`, the inhibition was inactive: 0.55%.

Turning to `COc1ccccc1CNC(=O)COC(=O)C(O)(c1ccccc1)c1ccccc1`, the inhibition was inactive: -0.08%.

For the molecule `CC(C)(C)C(=O)NC(Sc1ncccn1)C(Cl)(Cl)Cl` (configuration not stated), the inhibition was inactive: -1.36%.

Consider `Clc1n[nH]nc1-c1nn[nH][15n]1`, for which the inhibition was inactive: -1.68%.

Regarding `CCOP(=O)(NC(=NC(C)c1ccccc1)NC(C)c1ccccc1)OCC` (configuration not stated), the inhibition is inactive: -1.27%.

As to `CCC1=CC2Cc3nc4ccc(Cl)cc4c(N)c3C(C1)C2` (configuration not stated), the inhibition is inactive: 3.1%.

As for `O=P1(Nc2ccccn2)COc2ccccc2OC1`, the inhibition is inactive: -1.46%.

Regarding `CCOP(=O)(Nc1ccc(C)cn1)OCC`, the inhibition is inactive: 0.27%.

In the case of `CN(CCCl)Cc1cc(Cl)c(NC2=NCCN2)c(Cl)c1`, the inhibition was inactive: -0.61%.

With `Nc1cccc([As](=O)(O)c2ccccc2)c1`, the inhibition was inactive: -0.26%.

With `Cc1ccc(OCC(=O)OC2CN3CCC2CC3)cc1` (configuration not stated), the inhibition is inactive: -0.09%.

On to `O=[As](O)(c1cccs1)c1cccs1`, for which the inhibition is inactive: 2.36%.

In the case of `NS(=O)(=O)c1cccc(NC(=O)COC(=O)C(O)(c2ccccc2)c2ccccc2)c1`, the inhibition was inactive: -1.51%.

On to `O=P1(Nc2ccc(Br)cn2)COc2ccccc2OC1`, for which the inhibition is inactive: -2.25%.

With `O=P1(Nc2ncccn2)COc2ccccc2OC1`, the inhibition was inactive: 1.92%.

For `CN(C)C1(CNC(=O)c2ccc(S(C)(=O)=O)cc2)CCCCC1`, the inhibition was inactive: 1.09%.

Regarding `O=C(/C=C/c1ccccc1)OC1CN2CCC1CC2` (configuration not stated), the inhibition is inactive: 0.65%.

For the molecule `Cc1ccc(C(=O)OC2CN3CCC2CC3)cc1` (configuration not stated), the inhibition was inactive: -2.32%.

Turning to `CC1CCC(C(C)C)C(OP(=O)(Nc2ccccn2)c2ccccc2)C1` (configuration not stated), the inhibition is inactive: 1.95%.

For the molecule `Cc1nn(-c2ccccc2)c2c1P(=O)(N1CCOCC1)N(C)C(c1ccccc1)=N2` (configuration not stated), the inhibition is inactive: 3.19%.

With `CN(C(=O)Cc1ccccc1)[C@@H]1CC[C@]2(CCCO2)C[C@H]1N1CCCC1`, the inhibition was inactive: 0.17%.

For `CCOP1(=S)c2c(C)nn(CCC#N)c2N=C(c2ccc(F)cc2)N1C` (configuration not stated), the inhibition is inactive: 0%.

Consider `N#CCCN(C(=O)COC(=O)C(O)(c1ccccc1)c1ccccc1)c1ccc(F)cc1`, for which the inhibition was inactive: -3.04%.

As for `CN(C(=O)Cc1ccc(Cl)c(Cl)c1)[C@H]1CC[C@@]2(CCCO2)C[C@@H]1N1CCCC1`, the inhibition was inactive: 3.27%.

For `O=[N+]([O-])c1ccc2c(c1)nnn2O`, the inhibition was inactive: -1.16%.

For the molecule `CN(C)C(=O)c1cc([N+](=O)[O-])cc2c1-c1c(cc([N+](=O)[O-])cc1[N+](=O)[O-])C2=O`, the inhibition is inactive: 0.33%.

For the molecule `NC(=O)Nc1ccc([As](=O)(O)O)cc1`, the inhibition was inactive: 1.56%.

For `O=C(O)COc1ccc([As](=O)(O)O)cc1[N+](=O)[O-]`, the inhibition is inactive: -1.08%.

Regarding `Nc1ccccc1[As](=O)(O)c1ccccc1`, the inhibition is inactive: -0.6%.

Regarding `O=P(Nc1nccs1)(Oc1ccccc1)Oc1ccccc1`, the inhibition was inactive: -0.7%.

With `O=P(Nc1nccs1)(c1ccccc1)c1nc2ccccc2s1` (configuration not stated), the inhibition was active: 12.6%.

With `CCOP1(=S)c2c(C)nn(CCC#N)c2N=C(c2ccccc2F)N1C` (configuration not stated), the inhibition is inactive: 0.58%.

Regarding `CS(=O)(=O)c1cc([N+](=O)[O-])c2no[n+]([O-])c2c1`, the inhibition was inactive: 2.55%.

`CCOP(=O)(Nc1cccc2ccccc12)OCC`: the inhibition is inactive: 3.49%.

For the molecule `COc1cc(C2NCCC3(OCCO3)C2(C)C)cc(OC)c1OC` (configuration not stated), the inhibition is inactive: 1.21%.

Turning to `Cc1ccc(NCCc2c([N+](=O)[O-])cc([N+](=O)[O-])cc2[N+](=O)[O-])cc1`, the inhibition was inactive: -2.01%.

As for `Nc1cccc2c([As](=O)(O)O)cccc12`, the inhibition is inactive: -1.51%.

Take `CCCOP(=S)(Nc1nc(N)cc(=O)[nH]1)OCCC`: the inhibition is inactive: -1.08%.

For the molecule `Cc1cccc(OCC(=O)OC2CN3CCC2CC3)c1` (configuration not stated), the inhibition is inactive: 0.55%.

Regarding `O=[As](O)(c1cccc(O)c1)c1cccc(O)c1`, the inhibition is inactive: 1.63%.

Turning to `O=C(OC1CN2CCC1CC2)c1ccc(Cl)cc1` (configuration not stated), the inhibition is inactive: -0.49%.

In the case of `CS(=O)(=O)c1ccc(Cl)c(NC(=O)COC(=O)C(O)(c2ccccc2)c2ccccc2)c1`, the inhibition was inactive: 1.77%.

Regarding `O=[As](O)(O)c1cccnc1`, the inhibition is inactive: 0.77%.

As to `COc1cc(C(=O)NCC2(N3CCOCC3)CCCCC2)cc(Cl)c1OC(C)C`, the inhibition is inactive: -2.94%.

Consider `CC(=O)Nc1ccc(Oc2c([N+](=O)[O-])cc([N+](=O)[O-])cc2[N+](=O)[O-])cc1`, for which the inhibition is inactive: -1.01%.

Regarding `CC(=O)Nc1ccc([As](=O)(O)O)c(O)c1`, the inhibition is inactive: -2.43%.

Take `C[C@H]1OP(=O)(Oc2ccccc2)C[C@@H]2O[C@@H]21` (some centres not stated): the inhibition is inactive: 0.17%.

For `C[C@@H]1C=CCP(=O)(Oc2ccccc2)O1` (some centres not stated), the inhibition is inactive: 0.51%.

Consider `Cc1ccccc1CN(C)C(=O)COC(=O)C(O)(c1ccccc1)c1ccccc1`, for which the inhibition was inactive: -1.69%.

Consider `CC(=O)c1ccc(N2CC2c2ccncc2)cc1` (configuration not stated), for which the inhibition is inactive: -1.16%.

With `CC(C)(C)C(=O)NC(Sc1ccccc1)C(Cl)(Cl)Cl` (configuration not stated), the inhibition was inactive: 1.86%.

In the case of `CCOc1ccc(C2=NCC(CBr)S2)cc1` (configuration not stated), the inhibition is inactive: 1.36%.

Turning to `O=P1(Nc2nc3ccc(Cl)cc3s2)COc2ccccc2O1` (configuration not stated), the inhibition is inactive: 0.36%.

As for `CN(C)C(=O)Oc1noc2ccccc12`, the inhibition was inactive: -0.32%.

Regarding `CC(NC(=O)COC(=O)C(O)(c1ccccc1)c1ccccc1)c1ccccc1` (configuration not stated), the inhibition was inactive: -0.98%.

Consider `Cc1ccccc1OP(=O)(Nc1ccccn1)Oc1ccccc1C`, for which the inhibition is inactive: -1.88%.

For the molecule `CCC(=O)N1C2C3N(C(=O)CC)C1C1N(C(=O)CC)C(C(N1C(=O)CC)N3C(=O)CC)N2C(=O)CC`, the inhibition was inactive: 0%.

Take `O=C(OC1CN2CCC1CC2)c1ccccc1` (configuration not stated): the inhibition is inactive: -0.55%.

On to `CC(=O)NC(SC(=S)N(CC(C)C)CC(C)C)C(Cl)(Cl)Cl` (configuration not stated), for which the inhibition was inactive: 9.31%.

Turning to `Cc1ccc(OP(=O)(Nc2ccccn2)Oc2ccc(C)cc2)cc1`, the inhibition was inactive: 1%.

Consider `COC(=O)c1cc2c(s1)N=C(c1ccccc1)N(C)P2(=O)N1CCOCC1` (configuration not stated), for which the inhibition is inactive: 4.71%.

Regarding `Cc1ccc(NP(=O)(Oc2cccc(C)c2)Oc2cccc(C)c2)nc1`, the inhibition is inactive: 5.2%.

`CCOC(=O)NC(Sc1ccccc1)C(Cl)(Cl)Cl` (configuration not stated): the inhibition is inactive: -0.82%.

For the molecule `c1ccc(-c2nn[nH]n2)c(-c2nn[nH]n2)c1`, the inhibition is inactive: 2.83%.

Take `O=C(NC1CCS(=O)(=O)C1)NP(=S)(Oc1ccccc1)Oc1ccccc1` (configuration not stated): the inhibition is inactive: 0.37%.

For the molecule `CCNC(=S)/N=C(\N)N[N+](=O)[O-]`, the inhibition is inactive: 1.35%.

Turning to `O=C(OC1CN2CCC1CC2)c1cccc(Cl)c1` (configuration not stated), the inhibition is inactive: 0.5%.

With `C(Cc1nn[nH]n1)Cc1nn[nH]n1`, the inhibition is inactive: 1.2%.

Turning to `Nc1ccc([As](=O)(O)c2ccc([N+](=O)[O-])cc2)cc1`, the inhibition is inactive: 0.66%.

For the molecule `O=[As](O)(c1ccccc1)c1ccc(O)cc1`, the inhibition was inactive: -0.43%.

In the case of `CC(=O)NC(SC(=S)N(C)C)C(Cl)(Cl)Cl` (configuration not stated), the inhibition was inactive: -0.33%.

As to `O=[N+]([O-])c1ncn(CCn2cnc([N+](=O)[O-])n2)n1`, the inhibition was inactive: 2.84%.

In general, inhibition refers to the change of the read-out against control, counted positive when it falls.
